B1: mAb14258 (antibody, V domains shown)
VH: QLQLQESGPGLVKPSETLSLICTGSGDSISSSHYYWGWIRQPPGKGLEWIGSTYFSGSTYYNPSLKSRVSISVDTSKNQVSLKLISVTAADTAVYYCAREMGATLGDYWGPGTLVTVSS
VL: QSVLTQPPSASGTPGQRVTISCSGSSSNIGNNYVYWYQQFPGTTPRLLIYRNNERPSGVPDRFSGSKSGTSASLVISGLRSEDEADYYCAAWDDSLSAHYVFGTGTKVTVLG
B2: mAb14281 (antibody, V domains shown)
VH: QVQLVQSGADVKKPGASVKVSCKTSGYIFTGYYIHWVRQAPGQGLEWMGWINPNSGGTNSAQKFQGRVTMTRDTSISTVYMELSRLRSDDTAVYYCAKSNSFSVLDYNFDYWGQGTLVTVSS
VL: SSELTQDPAVSVALGQTVRITCQGDSLRSYYASWYQQKPGQAPVLVIYDKNNRPSGIPDRFSGSSSGNTASLTITGAQAEDEADYYCNSRDSSRNHLVVFGGGTKLTVLG
B3: mAb14247 (antibody, V domains shown)
VH: QITLKESGPTLVKPTQTLTLTCTFSGFSLSTSAVGVGWIRQPPGKALEWLALIYWDDDKRYSPSLKSRLTITKDTSKNQLVLTMTNVDPVDTATYYCAHHTIQLIFDYWGQGTLVTVSS
VL: QSALTQPASVSGSPGQSITISCTATSSDVGNYNYVSWYQQHPGKAPKLMIYEVSNRPSGVSNRFSGSKSGNTASLTISGLQAEDEADYYCSSYTSSSTPLVFGGGTKLTVLG
B4: mAb14232 (antibody, V domains shown)
VH: B3 VH with T31A, A33G, L80V, V87M, H99Q, T101K, I102V, Q103A, L104T
VL: QSALTQPPSASGSPGQSVTISCTATSSDVGNYNYVSWYQQHPGKAPKLMIYEVTKRPSGVPDRFSGSKSGNTASLTVSGLQAEDEADYYCSSYAGSWGVFGGGTKLTVLG
B5: mAb14282 (antibody, V domains shown)
VH: QVQLVQSGAEVKKPGASVKVSCKASGYIFTDHYMHWVRQAPGQGLEWMGWINPNSGATNYAQNFQGRVTMTRDTSIITVYMELSRLRSDDTAVYYCARDSSPYMIRYTMDVWGQGTTITVSS
VL: QSALTQPASVSGSPGQSITISCTGTSSDVGSYNLVSWYQQHPGKAPKLMIYELTKRPSGVSNRFSGSKSGNTASLTISGLQAEDEADYYCSSYRGSVTDVVFGGGTKLTVLG
B6: mAb14230 (antibody, V domains shown)
VH: EVQLVESGGGLIQPGRSLRLSCAASGFTFDDYAMHWVRQAPGKGLEWVSGISWNSVSIDYADSVKGRFTISRDNAKNSLYLQMTSLTVEDTALYYCAKAFGYETLTGSDYFAYWGPGTLVTVSS
VL: EIVLTQSPGTLSLSPGERATLSCRASQTVISTYLAWYQQKPGQSPRLLIYGASSRATGIPDRFSGSGSGTDFTLTISRLEPEDFAVYYCQQYGSSPQLTFGGGTKVEIKR
B7: mAb14255 (antibody, V domains shown)
VH: QVQLQESGPGLVKPSETLSLTCTVSGGSISGYYWSWIRQPPGKGLDWIGYIYYRGNTNYNPSLKSRVTISVDTSNNQFSLKLSSVTAADTAVYYCARYGEGYGDASGYHFDYWGQGTLVTVSS
VL: QSALTQPASVSGSPGQSITISCTGTSSDVGSYNLVSWYQQHPGKAPKLMIYEDSKRPSGVANPFSGSKSGNTASLTISGLQAEDEADYYCSSYAGSSTWVFGGGTKLTVLG
B8: mAb14256 (antibody, V domains shown)
VH: QVQLQESGPGLVKPSETLSLTCTVSGGSISSHYWSWIRQPPGKGLEWIGYIYYSGSSNYNPSLKSRVTISVDTSKNQFSLKLNSVTAADTAVYYCARHYDILTGFDWFDPWGQGTLVTVSS
VL: QSVLTQPPSVSGAPGQRVTISCTGSSSNIGTHYDVHWYQQLPGTAPKLLIYGNSNRPSGVPDRFSGSKSGTSASLAITGLQAEDEADYYCQSFDNSLTAPYVFGTGTKVTVLG
B9: mAb14280 (antibody, V domains shown)
VH: QVQLVQSGAEVKKPGASVRVSCKASGYTFTGNYIHWVRQAPGQGLEWMAWINPNSGGKNYAQKFQGRVTLTRDTSVNTAYMELSRLRSDDTAMYYCARDVNYNILTGPGGLWGQGTLVTVSS
VL: QSALTQPPSASGSPGQSVTISCTGTSSDVGGYNFVSWYQQHPGKAPKLMIYEVSKRPSGVPDRFSGSKSGNTASLTVSGLQAEDEADYYCSSYAGSNNFVFGTGTKVTVLG
B10: mAb14257 (antibody, V domains shown)
VH: EVQLVESGGGLVQPGGSLRLSCAASGFTVSRSYMNWVRQAPGKGLEWVSVVFTGGTTKHTDSVKGRFTISRDNSMNTLYLQMNSLRPEDTAVYYCARVAIVETTGAFDIWGQGTMVTVSS
VL: QSVLTQPPSVSGAPGQRVTISCTGTSSNIGADFDVHWYQQFPGTAPKLLIYGHTNRPSGIPDRFSGSKSGTSASLAITGLQAEDEADYYCQSYDSSLSGSVVFGGGTKLTVLG
B11: mAb14295 (antibody, V domains shown)
VH: QLQLQESGPGLVKPSETLSLTCTVSGGSISSSGHYWGWIRQSPGKGLDWIGSIYYSGSTYYNPSLKSRVTISVDTSKNQFSLKLNSVTAADTAVYFCARLEAYCSGDTCHYFYGLDVWGQGTTVTVSS
VL: DIQMTQSPSSLSASVGDRVTITCRASQSINTYLNWYQQKPGKAPNLLIDGASSLQSGVPSRFSGSGSGTDFILTISSLRPEDFATYYCQQSYSIPLTFGGGTRVEIKR
B12: mAb14314 (antibody, V domains shown)
VH: RVTLRESGPALVKPTQTLTLTCTFSGFSLYSSGMSVSWIRQPPGKALEWLARIDWDDDEYYSSFLKTRLTISKDISKNQVVLTMTNLDPVDTATYYCVRPRYSSNFGFEYWGQGTLVTVSS
VL: QSVLTQPPSVSAAPGQKVTISCSGSISNIGNNYVSWYQQLPGTAPKLLIYDNDKRPSGIPDRFSGSRSGTSATLGITGLQTGDEADYYCGTWDSSLTAYVFGTGTKVTVLG
B13: mAb14259 (antibody, V domains shown)
VH: EVQLVESGGGLVQPGGSLRLSCAASGFPFSTYEMNWVRQAPGKGLEWVSYISSSGNTIYYADSVKGRFTISRDNAKNSLYLQMNTLRAEDTAVYYCARDAVRDHDILTDPATFDPWGQGTLVTVSS
VL: DIVMTQSPLSLPVTPGEPASISCRSSQTLLHSNGYNYLDWYLQKPGQSPQLLIHLGSNRASGVPDRFSGSGSVTDFTLKISRVEAEDVGVYYCMQALQTPYTFGQGTKLEIKR
B14: mAb14316 (antibody, V domains shown)
VH: QVQLVQSGAEVKKPGSSVKVSCKAPGGTFSTYAINWVRQAPGQGLEWMGRIVPFFGTTNYAQKFQGRVTITADESTSTAYMELSSLTSEDTAVYYCARGPRPFGELLYWGQGTLVTVSS
VL: DIQMTQSPSSLSASVGDRVTITCQASQDISNYLNWYQQKPGKAPKLLIYDASNLETGVPSRFSGSGSGTDFTFTISSLQAEDIATYYCQQYDNLLFTFGPGTKVDIKR
B15: mAb14315 (antibody, V domains shown)
VH: QVQLVQSGAEVKKPGSSVKVSCKASGDTFSTYAINWVRQAPGQGLEWMGRFIHIFGTANYAQKFQGRVTITADESTSTAYMELRSLRSEDTAVYYCARDGVDYGDYRPDYWGQGTLVTVSS
VL: EIVLTQSPGTLSLSPGERATLSCRASQSVSSNYLAWYQQKPGQAPRLLIYGASSRATGIPERFSGSGSGTDFTLTISRLEPEDFAVYYCQQYGSSLYTFGQGTKLEIKR
B16: mAb14312 (antibody, V domains shown)
VH: B10 VH with N35T, V51I, T56R, K58D, T60A, D72H, M75K, P87T, E102G, T103A
VL: B10 VL with T25S, D32G, F33D, F41L, H53N, T54S, I60V

Substitutions are numbered along the chain they refer to.

One experiment deals with T1, SARS-COV-2 RBD-MMH (SARS-COV-2 RBD extracellular domain with C-terminal myc-myc-hexahistidine tag) (SARS-CoV-2). The experiment is described as follows: SPR 37C, mAb captured, 90 nM RBD-MMH, dissociation pH 6.0.
What is called koff is the rate constant with which the complex falls apart. A low value points to slow dissociation. As for B1, the “RBD.mmh Bound at pH 7.4 (RU)” value amounted to 85 RU and the koff came to 0.000548 s⁻¹.

As for B2, the “RBD.mmh Bound at pH 7.4 (RU)” value was 85.2 RU.

As for B3, the “RBD.mmh Bound at pH 7.4 (RU)” value stood at 43.8 RU.

For the molecule B4, the “RBD.mmh Bound at pH 7.4 (RU)” value amounted to 23 RU.

For B5, the “RBD.mmh Bound at pH 7.4 (RU)” value worked out at 83.5 RU.

For the molecule B6, the “RBD.mmh Bound at pH 7.4 (RU)” value amounted to 70.7 RU.

Consider B7, for which the “RBD.mmh Bound at pH 7.4 (RU)” value was 96.4 RU.

On to B8, for which the “RBD.mmh Bound at pH 7.4 (RU)” value turned out to be 84.4 RU.

For the molecule B9, the “RBD.mmh Bound at pH 7.4 (RU)” value came to 78.4 RU.

As to B10, the “RBD.mmh Bound at pH 7.4 (RU)” value amounted to 91.3 RU.

The next experiment concerns the target SARS-CoV-2 RBD.mmh (Spike amino acids Arg319-Phe541 with C-terminal myc-myc-6-Histidine tag) (SARS-CoV-2, UniProt P0DTC2 319-541).
Assay: not given
For the molecule B1, the “% Blocking at 100 nM mAb concentration” value came out at 93%.

Turning to B2, the “% Blocking at 100 nM mAb concentration” value was found to be 100%.

Turning to B3, the “% Blocking at 100 nM mAb concentration” value worked out at 95%.

With B5, the “% Blocking at 100 nM mAb concentration” value worked out at 96%.

On to B6, for which the “% Blocking at 100 nM mAb concentration” value turned out to be 85%.

For B7, the “% Blocking at 100 nM mAb concentration” value is 92%.

On to B9, for which the “% Blocking at 100 nM mAb concentration” value came out at 98%.

For the molecule B10, the “% Blocking at 100 nM mAb concentration” value was 95%.

The target in the next experiment is full-length SARS-CoV-2 spike protein (Wuhan-Hu-1) on Jurkat/hCD20 cells (SARS-CoV-2, UniProt P0DTC2 14-1273). The experiment is described as follows: cell-based or functional assay.
Turning to B11, the “EC50 [M] of ADCP, macrophages, Jurkat/hCD20/SARS-CoV-2 spike cells” value (shortened to “EC50 [M] … Jurkat/hCD20/SARS-CoV-2 spike cells”) came to 4.57e-10 M and the “Max % ADCP, macrophages, Jurkat/hCD20/SARS-CoV-2 spike cells” value was found to be 35.3%.

On to B12, for which the “EC50 [M] … Jurkat/hCD20/SARS-CoV-2 spike cells” value was determined as 1.12e-09 M and the “Max % ADCP, macrophages, Jurkat/hCD20/SARS-CoV-2 spike cells” value is 16.7%.

With B13, the “Max % ADCP, macrophages, Jurkat/hCD20/SARS-CoV-2 spike cells” value was found to be 39.6%.

Consider B14, for which the “EC50 [M] … Jurkat/hCD20/SARS-CoV-2 spike cells” value stood at 2.54e-10 M and the “Max % ADCP, macrophages, Jurkat/hCD20/SARS-CoV-2 spike cells” value was 37.7%.

As for B15, the “EC50 [M] … Jurkat/hCD20/SARS-CoV-2 spike cells” value is 6.3e-11 M and the “Max % ADCP, macrophages, Jurkat/hCD20/SARS-CoV-2 spike cells” value is 34.8%.

In the case of B16, the “EC50 [M] … Jurkat/hCD20/SARS-CoV-2 spike cells” value was determined as 1.69e-11 M and the “Max % ADCP, macrophages, Jurkat/hCD20/SARS-CoV-2 spike cells” value came to 27.8%.

The target of a further experiment is T1, SARS-COV-2 RBD-MMH (SARS-COV-2 RBD …). The experiment is described as follows: SPR 37C, mAb captured, 90 nM RBD-MMH, dissociation pH 7.4.
Take B1: the “RBD.mmh Bound at pH 7.4 (RU)” value stood at 85.9 RU and the koff stood at 0.00213 s⁻¹.

As to B2, the “RBD.mmh Bound at pH 7.4 (RU)” value was found to be 83.5 RU.

Turning to B3, the “RBD.mmh Bound at pH 7.4 (RU)” value came out at 40.8 RU.

Consider B4, for which the “RBD.mmh Bound at pH 7.4 (RU)” value was 8.2 RU.

Take B5: the “RBD.mmh Bound at pH 7.4 (RU)” value was 73.5 RU.

Consider B6, for which the “RBD.mmh Bound at pH 7.4 (RU)” value was 67.6 RU.

Regarding B7, the “RBD.mmh Bound at pH 7.4 (RU)” value turned out to be 97.5 RU.

Consider B8, for which the “RBD.mmh Bound at pH 7.4 (RU)” value amounted to 80.2 RU.

Turning to B9, the “RBD.mmh Bound at pH 7.4 (RU)” value turned out to be 72.4 RU.

With B10, the “RBD.mmh Bound at pH 7.4 (RU)” value was found to be 82.3 RU.

The values are drawn from patent US20260069689A1, “ANTI-SARS-COV-2-SPIKE GLYCOPROTEIN ANTIBODIES AND ANTIGEN-BINDING FRAGMENTS” (Regeneron, published 2026).
